# Test results taken from patent US20210255174.
# Test system: SNAPtide (FITC/DABCYL), List Biological Laboratories product #521
substance,measurement,value
"BoNT/A complex (intact BoNT/A toxin complex, Metabiologics)",Km of the immobilized enzyme against the free enzyme,The Km of the immobilized enzyme is 3.2-fold lower than for the free enzyme
